## Deep mutational scan of the Zika virus protease

Values reported by Ni et al. 2025 (doi:10.1038/s41467-025-63602-z).

The scanned region of Zika virus MR766 is shown below (positions 1-308): NS2B is 2-131, NS3 begins at position 132.
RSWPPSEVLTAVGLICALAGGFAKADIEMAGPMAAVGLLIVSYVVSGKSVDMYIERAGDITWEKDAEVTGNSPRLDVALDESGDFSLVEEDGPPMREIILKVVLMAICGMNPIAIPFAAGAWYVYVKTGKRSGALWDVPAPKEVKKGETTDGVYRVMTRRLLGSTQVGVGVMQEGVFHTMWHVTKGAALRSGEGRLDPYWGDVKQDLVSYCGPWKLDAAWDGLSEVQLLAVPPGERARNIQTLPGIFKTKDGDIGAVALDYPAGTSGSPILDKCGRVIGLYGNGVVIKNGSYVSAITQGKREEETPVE

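Libraries of single mutants were passaged as virus pools on Huh-7.5 cells. Sequencing of three replicate libraries (two for positions 207-308) was averaged into one effect per change. The aim was to find sites where inhibitor-binding pockets cannot change.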

Scale: log2 effect, wild type = 0; the lower, the more harmful to the virus.
Each entry names the wild-type residue, its position and the residue put in its place.
This list holds changes to histidine only.

G168H: -4.74.
V169H: -5.28.
G170H: -5.09.
V171H: -5.48.
M172H: -5.45.
Q173H: -1.13.
E174H: -5.51.
G175H: -2.69.
V176H: -4.43.
F177H: -4.43.
T179H: -5.78.
M180H: -4.57.
W181H: -4.85.
V183H: -4.48.
T184H: -5.74.
K185H: -1.54.
G186H: -4.40.
A187H: -4.72.
A188H: -5.48.
L189H: -5.42.
R190H: -2.68.
S191H: -2.63.
G192H: -3.96.
E193H: -0.36.
G194H: -6.34.
R195H: -5.57.
L196H: -5.33.
D197H: -4.65.
P198H: -7.10.
Y199H: 0.10.
W200H: -6.12.
G201H: -5.13.
D202H: -1.96.
V203H: -6.35.
K204H: -7.33.
Q205H: -3.18.
D206H: -6.19.
L207H: -6.97.
V208H: -7.41.
S209H: -6.40.
Y210H: -5.84.
C211H: -1.25.
G212H: -6.19.
P213H: -1.72.
W214H: -7.21.
K215H: -6.47.
L216H: -6.42.
D217H: -4.07.
A218H: -3.58.
A219H: 0.51.
W220H: -6.19.
D221H: -6.18.
G222H: 0.31.
L223H: -0.23.
S224H: -4.68.
E225H: -3.10.
V226H: -4.73.
Q227H: -7.12.
L228H: -4.70.
L229H: -0.34.
A230H: -3.17.

6 of these entries, quoted again:

{"change": "Q173H", "log2 effect": -1.13}
{"change": "Q205H", "log2 effect": -3.18}
{"change": "W220H", "log2 effect": -6.19}
{"change": "C211H", "log2 effect": -1.25}
{"change": "L229H", "log2 effect": -0.34}
{"change": "S209H", "log2 effect": -6.40}

Position 1 still belongs to NS2A. In the paper, -1 or higher counts as tolerated.
The region was split into three libraries (1-103, 104-206, 207-308).
Six mutants with high scores were retested singly and none clearly outgrew wild type, so positive values are not proof of better growth.